Results of unrelated studies side by side (data: NIAID ChemDB).

Shared fields: tests in culture; species: Human cytomegalovirus; measure: EC50

a–b is a range or a potency band.

{"smiles": "Nc1nc2c(ncn2[C@@H]2C=C[C@H](CO)CC2)c(=O)[nH]1", "method": "plaque count", "result": "1–10 µM"}
{"smiles": "C[C@H](Cn1cnc2c(NC3CC3)ncnc21)OCP(=O)(O)O", "strain or isolate": "AD169", "result": "0.2 µg/mL"}
{"smiles": "CCC#Cc1ccc2c(c1)c(=O)c(C(=O)NCc1ccc(Cl)cc1)nn2C", "result": "<20 µM"}
{"smiles": "CC1(Cn2cnc3cnc(Cl)nc32)CC1CO", "result": ">100 µg/mL"}
{"smiles": "Nc1ccn(C[C@H]2COP(=O)(O)CO2)c(=O)n1", "result": "0.11 µM"}
{"smiles": "CCOC(=O)C1=Cc2cc(OC)c(OC)c(OC)c2[C@@H](c2ccc3c(c2)OCO3)[C@@H]1C(=O)OCC", "method": "plaque count", "result": "1.4 µM"}
{"smiles": "O=C(O)P(=O)(O)O", "result": "15 µM"}
{"smiles": "CCCCCCCCCc1cc2cn([C@H]3CC[C@@H](CO)O3)c(=O)nc2o1", "result": "1.2 µM"}
{"smiles": "Cc1ccc(Cn2c(=O)ccn(CC#N)c2=O)cc1", "strain or isolate": "AD169", "result": "78 µM"}
{"smiles": "O=C1OCc2cc3cc4c(cc3c(-c3ccc5c(c3)OCO5)c21)OCO4", "method": "plaque count", "result": "1.2 µM"}
{"smiles": "Cc1cccc(Cn2c(=O)ccn(CC#N)c2=O)c1", "strain or isolate": "AD169", "result": ">196 µM"}
{"smiles": "CC1(Cn2cnc3c(=O)[nH]c(N)nc32)CC1CO", "result": ">100 µg/mL"}
{"smiles": "O=C(NCc1ccc(Cl)cc1)c1n[nH]c2ccccc2c1=O", "result": "2.7 µM"}
{"smiles": "O[C@@H]1C(n2c(Cl)nc3cc(Cl)c(Cl)cc32)OC[C@@H]1O", "result": "4.9 µM"}
{"smiles": "Cc1cc(C)cc(Cn2ccc(=O)n(Cc3cc(C)cc(C)c3)c2=O)c1", "strain or isolate": "AD169", "result": ">14 µM"}
{"smiles": "O=c1[nH]c(=O)n([C@@H]2O[C@H](CO)[C@@H](O)[C@@H]2O)cc1/C=C/Br", "result": ">100 µM"}
{"smiles": "C[C@@]1(CO)[C@H](O)CC[C@@]2(C)[C@H]1CC[C@H]1C[C@@H]3C[C@@]12CC[C@]3(O)CO", "method": "plaque count", "result": "1 µM"}
{"smiles": "COc1nc2c(cc1CCCO)c(=O)c(C(=O)NCc1ccc(Cl)cc1)cn2C", "result": "0.46 µM"}
{"smiles": "CN(C)S(=O)(=O)Nc1ccc(S(=O)(=O)Nc2ccc(NC(=O)C(C)(C)C)cc2)cc1", "result": "2.6 µM"}
{"smiles": "Nc1ncnc2c1ncn2[C@H]1C[C@H](O)[C@@H](COP([O-])(=S)O[C@H]2C[C@H](n3ccc(=O)[nH]c3=O)O[C@@H]2CO)O1", "strain or isolate": "AD169", "result": ">20 µM"}
{"smiles": "OC[C@H]1O[C@@H](n2cnc3cc(Cl)c(Cl)cc32)[C@H](O)[C@@H]1O", "result": "42 µM"}
{"smiles": "Nc1ncnc2c1ncn2CCOCP(=O)(O)O", "result": "37 µM"}
{"smiles": "Nc1nc2c(ncn2C=C2CC2CO)c(=O)[nH]1", "method": "plaque count", "result": "1–10 µM"}
{"smiles": "C=C1CCC23C[C@H]1C[C@@H]2CC[C@H]1[C@](C)(CO)[C@H](O)CC[C@@]13C", "method": "plaque count", "result": "1.4 µM"}
{"smiles": "C=C1COc2c(N3CCN(c4nc5ccccc5s4)CC3)c(F)cc3c(=O)c(C(=O)O)cn1c23", "strain or isolate": "AD169", "result": "0.016 µg/mL"}
{"smiles": "Nc1ncnc2c1ncn2C[C@H]1COP(=O)(O)CO1", "result": "0.1 µM"}
{"smiles": "CCOC(=O)C1=Cc2cc(OC)c(OC)c(OC)c2[C@@H](c2ccc(OC)c(OC)c2)[C@@H]1C(=O)OCC", "method": "plaque count", "result": "22 µM"}
{"smiles": "Nc1nc2c(ncn2[C@H]2C=C[C@@H](CO)CC2)c(=O)[nH]1", "method": "plaque count", "result": "1–10 µM"}
{"smiles": "COc1cc(-c2cc(=O)c3c(O)cc(O)cc3o2)cc(OC)c1O", "method": "plaque count", "result": "0.05–1.2 µM"}
{"smiles": "OC[C@H]1O[C@@H](n2c(Cl)nc3cc(Cl)c(Cl)cc32)[C@@H](F)[C@@H]1O", "result": "13 µM"}
{"smiles": "C[C@@]1(O)[C@H](O)CC[C@@]2(C)[C@H]1CC[C@H]1C[C@@H]3CC12CC[C@]3(O)CSCc1ccccc1", "method": "plaque count", "result": "3.8 µM"}

A second listing of 2 rows from above:

{"smiles": "Nc1ncnc2c1ncn2C[C@H]1COP(=O)(O)CO1", "result": "0.1 µM"}
{"smiles": "O=C1OCc2cc3cc4c(cc3c(-c3ccc5c(c3)OCO5)c21)OCO4", "method": "plaque count", "result": "1.2 µM"}

ECn: concentration that inhibits the pathogen or its effect by n%. Rows are shuffled and stem from different studies.